## PSTVd loop 15 mutant pool in Nicotiana benthamiana

The pool varies loop 15 of the PSTVd intermediate strain in the pattern GGAAACCGNNNNNNC; wild type is GGAAACCGCUACUAC (upper and lower strand joined, each 5' to 3', the first 7 letters being the upper strand, closing pairs included).

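A pool of all variants was put on leaves of three Nicotiana benthamiana plants. Progeny were sequenced from the inoculated region (day 5), the margin of the inoculated leaf (day 10) and systemic leaves (day 12).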

Values are reads per thousand in the sample; higher means more abundant, 0 means not found. Each value is the mean of three plants. "Pool" is the share in the plasmid pool used as inoculum, on the same scale. The inoculated region was read from the minus strand, the other sites from the plus strand. The authors trace changes outside the varied positions to PCR and sequencing errors or to mutation in the plant; presence does not show that a variant is infectious alone. For reference, wild type rose from 33.9 per thousand in the pool to 202, 200, 159 (inoculated region), 724, 746, 710 (leaf margin) and 856, 883, 880 (systemic leaves). With 43,870-66,106 reads a sample, very low values are single reads.

sequence	pool	inoculated region	leaf margin	systemic leaves
GGAAACCGCGACAUC	0.192	0.207	0.00539	0
GGAAACCGAAGCAUC	0.352	0.253	0.00742	0
GGAAACCGAAGGGAC	0.192	0.108	0	0.00760
GGAAACCGAAUUUAC	0.304	0.118	0.0108	0.0107
GGAAACCGGACUGGC	0.192	0.0623	0.00668	0.00760
GGAAACCGGCGACCC	0.224	0.136	0.00668	0.0107
GGAAACCGCCCGGCC	0.176	0.0644	0.00668	0
GGAAACCGGACGCAC	0.272	0.148	0.0128	0
GGAAACCGCCGCACC	0.304	0.126	0.00539	0
GGAAACCGGUCUUCC	0.224	0.129	0.0254	0
GGAAACCGGAAAAUC	0.160	0.0823	0.00539	0
GGAAACCGCGACACC	0.320	0.0686	0.0228	0
GGAAACCGUCUCAUC	0.256	0.104	0	0
GGAAACCGUGCUGAC	0.304	0.0985	0.0195	0.00537
GGAAACCGUGUAUUC	0.384	0.305	0.197	0.0322
GGAAACCGAACCGGC	0.176	0.0967	0	0.00537
GGAAACCGGGCGUAC	0.176	0.328	0.136	0.0467
GGAAACCGACGGGCC	0.160	0.204	0.0187	0
GGAAACCGCAACUUC	0.192	0.347	0.0926	0.0455
GGAAACCGUUCGUCC	0.192	0.299	0.151	0.0487
GGAAACCGGAAGAAC	0.240	0.353	0.112	0.0992
GGAAACCGCCGUAAC	0.208	0.141	0	0.00537
GGAAACCGGAGACCC	0.208	0.103	0.00742	0
GGAAACCGCCACGGC	0.176	0.0978	0.00742	0
GGAAACCGUCGCUGC	0.176	0.107	0.00668	0.00537
GGAAACCGGAGUCAC	0.288	0.0679	0.00539	0
GGAAACCGACUGCUC	0.368	0.120	0.0282	0.00537
GGAAACCGGGGUUGC	0.224	0.115	0.0108	0
GGAAACCGGUGCUAC	0.160	0.0731	0.0134	0
GGAAACCGACUGCAC	0.272	0.0941	0	0
GGAAACCGAACUCCC	0.272	0.107	0.0187	0.00537
GGAAACCGAACCCAC	0.288	0.136	0.00668	0
GGAAACCGAAUCGUC	0.256	0.182	0.0195	0
GGAAACCGCCCAACC	0.176	0.0911	0.0208	0.00537
GGAAACCGUCCAUAC	0.208	0.347	0.0423	0.0490
GGAAACCGGAUCCAC	0.208	0.174	0	0
GGAAACCGGCGGUCC	0.208	0.134	0.0134	0.00537
GGAAACCGGGGACGC	0.304	0.0750	0.00742	0.00760
GGAAACCGUGAAUCC	0.208	0.398	0.0989	0.0107
GGAAACCGCACCAGC	0.272	0.0876	0.00539	0
GGAAACCGAGUACGC	0.368	0.104	0.00539	0.00537
GGAAACCGAAUCUAC	0.224	0.0622	0	0
GGAAACCGAACUCAC	0.192	0.178	0.0134	0
GGAAACCGUCGGACC	0.256	0.135	0.0121	0
GGAAACCGUACGCGC	0.208	0.136	0.0449	0.00537
GGAAACCGGUUGCAC	0.144	0.0922	0.0182	0
GGAAACCGAUUCACC	0.256	0.137	0.0187	0
GGAAACCGCGAAAGC	0.208	0.110	0.0148	0
GGAAACCGUCGUAGC	0.192	0.100	0.0336	0.00537
GGAAACCGUUGCCCC	0.208	0.0868	0.0134	0
GGAAACCGGUCAUUC	0.208	0.140	0.0134	0
GGAAACCGCAAGCUC	0.176	0.0857	0.00668	0
GGAAACCGGCAAAAC	0.144	0.0904	0.0256	0.00537
GGAAACCGCAUGUAC	0.272	0.342	0.118	0.0581
GGAAACCGCUAUUGC	0.160	0.316	0.114	0.0509
GGAAACCGCUCAGAC	0.256	0.0802	0.0267	0.00537
GGAAACCGAGCCACC	0.320	0.0631	0.0134	0

The opening 6 entries, copied out:

GGAAACCGCGACAUC (pool 0.192) read inoculated region 0.207; leaf margin 0.00539; systemic leaves 0.
GGAAACCGAAGCAUC (pool 0.352) read inoculated region 0.253; leaf margin 0.00742; systemic leaves 0.
GGAAACCGAAGGGAC (pool 0.192) read inoculated region 0.108; leaf margin 0; systemic leaves 0.00760.
GGAAACCGAAUUUAC (pool 0.304) read inoculated region 0.118; leaf margin 0.0108; systemic leaves 0.0107.
GGAAACCGGACUGGC (pool 0.192) read inoculated region 0.0623; leaf margin 0.00668; systemic leaves 0.00760.
GGAAACCGGCGACCC (pool 0.224) read inoculated region 0.136; leaf margin 0.00668; systemic leaves 0.0107.

From the data files of Wu et al. 2024, doi:10.1371/journal.ppat.1012142.